Target: Botulinum neurotoxin type A (Clostridium botulinum, UniProt P0DPI0)

By UniProt entry, the sequences of proteins in these tests, tags left out. Residues count along the entry.
UniProt P0DPI0, 2-448 limits assumed: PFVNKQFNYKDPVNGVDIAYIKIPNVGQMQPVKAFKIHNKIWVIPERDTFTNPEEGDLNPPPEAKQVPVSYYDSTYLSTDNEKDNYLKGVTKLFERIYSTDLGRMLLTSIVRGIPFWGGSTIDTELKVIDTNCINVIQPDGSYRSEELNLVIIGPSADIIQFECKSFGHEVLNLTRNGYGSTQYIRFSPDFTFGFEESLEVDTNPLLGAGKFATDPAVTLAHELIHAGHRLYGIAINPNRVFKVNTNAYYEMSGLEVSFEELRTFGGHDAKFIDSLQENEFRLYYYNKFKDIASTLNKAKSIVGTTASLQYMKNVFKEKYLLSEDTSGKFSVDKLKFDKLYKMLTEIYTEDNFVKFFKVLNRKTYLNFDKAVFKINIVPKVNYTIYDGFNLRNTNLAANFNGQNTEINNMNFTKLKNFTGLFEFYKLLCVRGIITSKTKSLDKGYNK

CS(=O)(=O)SCCCCCCCN(O)C(=O)/C=C/c1ccc(Cl)cc1Cl
Ki: 88 µM

From ChEMBL document CHEMBL4665791 (J Med Chem, 2020)
